The numbers were not newly measured in PMC12797016, which cites them from elsewhere.

Chains of the proteins cited; added tags and fusions are not shown.
UniProt P63167, whole entry: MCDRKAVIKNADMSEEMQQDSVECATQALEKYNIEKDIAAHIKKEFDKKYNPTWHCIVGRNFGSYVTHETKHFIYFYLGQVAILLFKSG

The data set deals with LC8 (dynein light chain, DYNLL1/DYNLL2) (Homo sapiens) (UniProt P63167). As to the kind of experiment: ITC. Particulars: cited from earlier work.

For the substance Bomv, the Kd is 27.9 µM. For the substance Bdbv, the equilibrium dissociation constant (Kd) is 0.82 µM.

On to Tafv, for which the Kd was 4.29 µM.
